Pooled drug test results. Numbers come from NIAID ChemDB, via PubChem.

All rows: target-level tests; species: HIV-1; protein: Reverse transcriptase; endpoint: IC50

ICn is the concentration giving n% inhibition. Conditions beyond the fields shown may differ between rows. Blank or dashed fields: not listed here. Two numbers with a dash give a range or band.

structure | read by | strain or isolate | mutations | value
COC(=O)[C@H](CC(C)C)NC(=O)c1ccc(NC(=O)CSc2nnc(Br)n2-c2ccc(C3CC3)c3ccccc23)c(Cl)c1 | nucleotide incorporation / radiometric | - | RT-Y181C | <0.05 µM
CCN1c2ncc(CCOc3ccc(-c4cn(C)cn4)cc3C)cc2C(=O)N(C)c2cccnc21 | nucleotide incorporation / radiometric | IIIB | - | <0.05 µM
CCc1ccc(-n2c(SCC(=O)Nc3ccc(C(=O)O)cc3Cl)nnc2C(F)(F)F)c2ccccc12 | nucleotide incorporation / radiometric | - | RT-Y188L | >0.1 µM
O=C(CSc1nnc(Br)n1-c1ccc(C2CC2)cc1C(F)(F)F)Nc1ccc(C(=O)O)cc1Cl | nucleotide incorporation / radiometric | - | - | <0.05 µM
Cc1ccc2c(C)cc(C)c(-n3c(SCC(=O)Nc4ccc(S(N)(=O)=O)cc4C)nnc3C(F)F)c2n1 | nucleotide incorporation / radiometric | - | - | <0.05 µM
CN(C)CCCC(=O)NC(C)(C)C#Cc1ccc(NC(=O)CSc2nnnn2-c2cc(C(F)(F)F)ccc2Cl)c(Cl)c1F | PicoGreen / fluorescence | - | RT-K103 Y181C | <1 µM
Cc1cc(S(N)(=O)=O)ccc1NC(=O)CSc1nnc(Br)n1-c1ccc(C)c2c1CCCC2 | nucleotide incorporation / radiometric | - | - | <0.05 µM
CCN1c2ncc(CCOc3ccc(CC(=O)O)c4ccccc34)cc2C(=O)N(C)c2ccc(Cl)nc21 | nucleotide incorporation / radiometric | - | RT-K103N Y181C | 0.1–1 µM
COC(=O)[C@@H](NC(=O)c1ccc(NC(=O)CSc2nnc(Br)n2-c2ccc(C3CC3)c3ccccc23)c(Cl)c1)C(C)C | nucleotide incorporation / radiometric | - | - | <0.05 µM
CN1CCN(CC2(C#Cc3ccc(NC(=O)CSc4nnnn4-c4ccc(C5CC5)cc4Cl)c(Cl)c3)CC2)CC1 | PicoGreen / fluorescence | WT | - | <1 µM
Cc1cc(C2CC2)cc(C)c1-n1c(Br)nnc1SCC(=O)Nc1ccc(C(=O)O)cc1Cl | nucleotide incorporation / radiometric | - | RT-Y181C | <0.05 µM
CC(C)(C#Cc1ccc(NC(=O)CSc2nnnn2-c2ccc(C(C)(C)C)cc2Cl)c(Cl)c1)OCC(=O)Nc1ccc(O)cc1 | PicoGreen / fluorescence | - | RT-K103 Y181C | <1 µM
CCN1c2ncc(CCc3cc[n+]([O-])cc3)cc2C(=O)N(C)c2ccc(F)nc21 | nucleotide incorporation / radiometric | WT | - | <1 µM
COC(=O)[C@H](CC(C)C)NC(=O)c1ccc(NC(=O)CSc2nnc(Br)n2-c2ccc(C3CC3)c3ccccc23)c(Cl)c1 | nucleotide incorporation / radiometric | - | - | <0.05 µM
NS(=O)(=O)c1ccc(NC(=O)CSc2nnc(C(F)F)n2-c2ccc(C3CC3)c3ccccc23)c(Cl)c1 | nucleotide incorporation / radiometric | - | RT-Y181C | <0.05 µM
CCc1ccc(-n2c(Br)nnc2SCC(=O)Nc2ccc(C(=O)O)cc2C)c2ccccc12 | nucleotide incorporation / radiometric | - | RT-Y181C | 0.05–0.1 µM
CCN1c2ncc(CCOc3ccc4cc(C(=O)NC(C)(C)C(=O)O)ccc4c3)cc2C(=O)N(C)c2cccnc21 | nucleotide incorporation / radiometric | - | RT-V106A | 0.1–1 µM
CCc1ccc(-n2c(Br)nnc2SCC(=O)Nc2ccc(S(N)(=O)=O)cc2Cl)c2ccccc12 | nucleotide incorporation / radiometric | - | RT-Y181C | <0.05 µM
CC(C)(C)c1ccc(-n2nnnc2SCC(=O)Nc2ccc(NS(=O)(=O)Cc3ccccc3)cc2Cl)c(Cl)c1 | PicoGreen / fluorescence | WT | - | <1 µM
CCc1ccc(-n2c(Br)nnc2SCC(=O)Nc2ccc(C(=O)NCC3CCNCC3)cc2Cl)c2ccccc12 | nucleotide incorporation / radiometric | - | RT-Y181C | >0.1 µM
COC(=O)Cc1ccc(-c2ccc(NC(=O)CSc3nnnn3-c3ccc(C)cc3Cl)c([N+](=O)[O-])c2)cc1 | PicoGreen / fluorescence | - | RT-K103 Y181C | <1 µM
Cc1cc(C2CC2)cc(Cl)c1-n1c(Br)nnc1SCC(=O)Nc1ccc(S(N)(=O)=O)cc1Cl | nucleotide incorporation / radiometric | - | RT-Y181C | <0.05 µM
COC(=O)/C=C/c1ccc(NC(=O)CSc2nnnn2-c2ccc(C)cc2Cl)c(Cl)c1 | PicoGreen / fluorescence | - | RT-K103 Y181C | <1 µM
CCN1c2ncc(CC(O)c3cc[n+]([O-])cc3)cc2C(=O)N(C)c2ccc(Cl)nc21 | nucleotide incorporation / radiometric | - | RT-Y181C | <1 µM
CC(C)OC(=O)CNC(=O)c1ccc(NC(=O)CSc2nnc(Br)n2-c2ccc(C3CC3)c3ccccc23)c(Cl)c1 | nucleotide incorporation / radiometric | - | RT-Y181C | <0.05 µM
CNS(=O)(=O)c1ccc(NC(=O)CSc2nnnn2-c2ccc(C(C)(C)C)cc2Cl)c(Cl)c1 | PicoGreen / fluorescence | - | RT-K103 Y181C | <1 µM
FC(F)(F)Cc1nnc2c3ccccc3c(N3CCc4ccccc4C3)nn12 | RT activity / fluorescence | KER2008 | - | 0.88 µM
CCN1c2ncc(CCOc3ccc(CC(=O)O)c4c3CCCC4)cc2C(=O)N(C)c2ccc(Cl)nc21 | nucleotide incorporation / radiometric | - | RT-K103N Y181C | 0.1–1 µM
CCc1ccc(-n2c(Br)nnc2SCC(=O)Nc2ccc(C(=O)N[C@H](C(=O)OC)C(C)C)cc2Cl)c2ccccc12 | nucleotide incorporation / radiometric | - | RT-Y181C | <0.05 µM
CC(C)[C@H](NC(=O)c1ccc(NC(=O)CSc2nnc(Br)n2-c2ccc(C3CC3)c3ccccc23)c(Cl)c1)C(=O)O | nucleotide incorporation / radiometric | - | RT-Y188L | >0.1 µM
COc1ccc2c(c1)CN(c1nn3c(C)nnc3c3ccccc13)CC2 | RT activity / fluorescence | 98US_MSC5016 | - | 4.41 µM
CC(C)(C#Cc1ccc(NC(=O)CSc2nnnn2-c2ccc(C(C)(C)C)cc2Cl)c(Cl)c1)C(=O)O | PicoGreen / fluorescence | WT | - | <1 µM
FC(F)(F)c1nnc2c3ccccc3c(N3CCc4ccccc4C3)nn12 | RT activity / fluorescence | IIIB | - | 0.31 µM
CN1CCN(S(=O)(=O)c2ccc(NC(=O)CSc3nnnn3-c3ccc(C4CC4)cc3Cl)c(Cl)c2)CC1 | PicoGreen / fluorescence | - | RT-K103 Y181C | <1 µM
Nc1ccc2c(c1)CN(c1nn3c(C4CC4)nnc3c3ccccc13)CC2 | RT activity / fluorescence | 98US_MSC5016 | - | 0.26 µM
CCN1c2ncc(CCOc3ccc(C(=O)O)c4c3CCCC4)cc2C(=O)N(C)c2ccc(C)nc21 | nucleotide incorporation / radiometric | - | RT-K103N Y181C | 0.1–1 µM
CC(CC(=O)O)NC(=O)c1ccc(NC(=O)CSc2nnnn2-c2ccc(C(C)(C)C)cc2Cl)c(Cl)c1 | PicoGreen / fluorescence | WT | - | <1 µM
CCc1ccc(-n2c(Br)nnc2SCC(=O)Nc2ccc(S(N)(=O)=O)cc2Br)c2ccccc12 | nucleotide incorporation / radiometric | - | RT-Y188L | 0.05–0.1 µM
CCN1c2ncc(CCOc3ccc(C(=O)NS(=O)(=O)c4ccccc4)cc3C)cc2C(=O)N(C)c2cccnc21 | nucleotide incorporation / radiometric | IIIB | - | <0.05 µM
COc1ccc2c(C3CC3)ccc(-n3c(Br)nnc3SCC(=O)Nc3ccc(S(=O)(=O)O)cc3Cl)c2c1 | nucleotide incorporation / radiometric | - | RT-Y181C | <0.05 µM
CC(C)(C#Cc1ccc(NC(=O)CSc2nnnn2-c2ccc(C(C)(C)C)cc2Cl)c(Cl)c1)OCC(=O)Nc1ccc(C(=O)O)cc1 | PicoGreen / fluorescence | - | RT-K103 Y181C | <1 µM
Cc1cc(C)c2ccccc2c1-n1c(SCC(=O)Nc2ccc(S(N)(=O)=O)cc2Cl)nnc1C(F)(F)F | nucleotide incorporation / radiometric | - | - | <0.05 µM
CCc1ccc(-n2c(Br)nnc2SCC(=O)Nc2ccc(C(=O)O)cc2Br)c2ccccc12 | nucleotide incorporation / radiometric | - | RT-Y181C | <0.05 µM
Cc1ccc2ccccc2c1-n1c(Br)nnc1SC(C)C(=O)Nc1ccc(S(N)(=O)=O)cc1Cl | nucleotide incorporation / radiometric | - | - | <0.05 µM
COc1cc2c(cc1OC)CN(c1nn3c(C)nnc3c3ccccc13)CC2 | RT activity / fluorescence | IIIB | - | 0.4 µM
CCN1c2ncc(CCc3ccnc(C)c3)cc2C(=O)N(C)c2ccc(Cl)nc21 | nucleotide incorporation / radiometric | - | RT-Y181C | <1 µM
CC(C)(C)c1ccc(-n2nnnc2SCC(=O)Nc2ccc(OCC(=O)NCC(=O)O)cc2Cl)c(Cl)c1 | PicoGreen / fluorescence | WT | - | <1 µM
CCN1c2ncc(CCc3ccncc3)cc2C(=O)Nc2c(C)ccnc21 | nucleotide incorporation / radiometric | - | RT-Y181C | <1 µM
Cc1cc(C2CC2)c2ccccc2c1-n1c(Br)nnc1SCC(=O)Nc1ccc(S(=O)(=O)O)cc1Cl | nucleotide incorporation / radiometric | - | - | <0.05 µM
O=C(O)CNC(=O)c1ccc(NC(=O)CSc2nnc(Br)n2-c2ccc(C3CC3)c3ccccc23)c(Cl)c1 | nucleotide incorporation / radiometric | - | RT-Y181C | <0.05 µM
Oc1ccc2c(c1)CN(c1nn3c(C4CC4)nnc3c3ccccc13)CC2 | RT activity / fluorescence | IIIB | - | 0.47 µM
CC(C)(C)c1ccc(-n2nnnc2SCC(=O)Nc2ccc(S(=O)(=O)Nc3ccccc3)cc2Cl)c(Cl)c1 | PicoGreen / fluorescence | WT | - | <1 µM
CC(C)[C@H](NC(=O)c1ccc(NC(=O)CSc2nnc(Br)n2-c2ccc(C3CC3)c3ccccc23)c(Cl)c1)C(=O)O | nucleotide incorporation / radiometric | - | - | 0.05–0.1 µM
CC(C)(C#Cc1ccc(NC(=O)CSc2nnnn2-c2ccc(C3CC3)cc2Cl)c(Cl)c1)C(=O)NCCCN1CCCC1=O | PicoGreen / fluorescence | - | RT-K103 Y181C | <1 µM
CCN1c2ncc(CCOc3ccc(-c4ccc(C(=O)O)cn4)cc3C)cc2C(=O)N(C)c2cccnc21 | nucleotide incorporation / radiometric | IIIB | RT-K103N Y181C | <0.05 µM
CC(C)(C#Cc1ccc(NC(=O)CSc2nnnn2-c2cc(C(F)(F)F)cc(Cl)c2Cl)c(Cl)c1)NC(=O)c1cc[n+]([O-])cc1 | PicoGreen / fluorescence | WT | - | <1 µM
CCc1ccc(-n2c(Br)nnc2SCC(=O)Nc2ccc(C(=O)N3CCC(O)CC3)cc2Cl)c2ccccc12 | nucleotide incorporation / radiometric | - | - | <0.05 µM
CC(C)(C)c1ccc(-n2nnnc2SCC(=O)Nc2ccc(C(=O)NC3CCN(Cc4ccccc4)CC3)cc2Cl)c(Cl)c1 | PicoGreen / fluorescence | - | RT-K103 Y181C | <1 µM
CCOC(=O)CCNC(=O)c1ccc(NC(=O)CSc2nnc(Br)n2-c2ccc(CC)c3ccccc23)c(Cl)c1 | nucleotide incorporation / radiometric | - | - | <0.05 µM
CC(C)(C#Cc1ccc(NC(=O)CSc2nnnn2-c2ccc(C3CC3)cc2Cl)c(Cl)c1)NCc1nccs1 | PicoGreen / fluorescence | - | RT-K103 Y181C | <1 µM
NS(=O)(=O)c1ccc(NC(=O)CSc2nnc(Br)n2-c2ccc(C3CC3)cc2Cl)c(Cl)c1 | nucleotide incorporation / radiometric | - | RT-Y181C | <0.05 µM
O=C(CSc1nnnn1-c1ccc(C2CC2)cc1Cl)Nc1ccc(C#CC(O)(C(F)(F)F)C(F)(F)F)cc1Cl | PicoGreen / fluorescence | - | RT-K103 Y181C | <1 µM
O=C(CSc1nnc(Br)n1-c1ccc(C2CCC2)c2ccccc12)Nc1ccc(C(=O)O)cc1Cl | nucleotide incorporation / radiometric | - | - | <0.05 µM
Cc1cc(F)c(-n2nnnc2SCC(=O)Nc2ccc(-c3ccc(C(C)(C)C(=O)O)cc3)cc2Cl)c(Cl)c1 | PicoGreen / fluorescence | WT | - | <1 µM
CCN1c2ncc(CCOc3ccc(-c4cc(C(=O)O)ccc4OC)cc3C)cc2C(=O)N(C)c2cccnc21 | nucleotide incorporation / radiometric | IIIB | - | <0.05 µM